Data reported in PMC3806850, “The Tumor Targeted Superantigen ABR-217620 Selectively Engages TRBV7-9 and Exploits TCR-pMHC Affinity Mimicry in Mediating T Cell Cytotoxicity” (PLoS ONE, 2013).

B1: ABR-217620 (naptumomab estafenatox, 5T4Fab-SEA/E-120) (Fab, V domains shown)
VH: EVQLQQSGPDLVKPGASVKISCKASGYSFTGYYMHWVKQSPGKGLEWIGRINPNNGVTLYNQKFKDKATLTVDKSSTTAYMELRSLTSEDSAVYYCARSTMITNYVMDYWGQGTSVTVSS
VL: SIVMTQTPTSLLVSAGDRVTITCKASQSVSNDVAWYQQKPGQSPKLLISYTSSRYAGVPDRFSGSGYGTDFTLTISSVQAEDAAVYFCQQDYNSPPTFGGGTKLEIK

How the values were obtained:
[1] = biological target: ABR-217620 (naptumomab estafenatox, 5T4Fab-SEA/E-120); assay: SPR
[2] = biological target: Recombinant human 5T4-IgG1Fc (Homo sapiens, UniProt Q13641)

Molecule	Kd (C215Fab-SEA/E-120) [nM]	Kd [1] [nM]	Kd [2] [nM]	koff [2] [s⁻¹]	kon [2] [M⁻¹ s⁻¹]
soluble TCR reagent TRBV7-9 (disulfide-linked αβ-heterodimer)	580	480	–	–	–
B1	–	–	0.21	7.5e-05	360000
